According to patent US20240109955A1:

B1: MX1042 (bispecific antibody)
chain: DTVMTQSPLSLPVTPGEPASISCRSSQSLLNSNGYNYLDWYVQKPGQSPQLLIYLGSNRASGVPDRFSGSGSGTDFTLKISRVEAEDVGVYYCMQPLQTPLFTFGPGTKVEIKGGSSGEIVLTQSPGTLSLSPGETATLSCRASQSFSSDLAWYQQKPGQAPRLLIYGASSRATGIPDRFSGSGSGTDFTLTISRLEPADFAVYYCQQYGSSPPVTFGGGTKVEIKGGGGSGGSGSGGGGSASGSGEVQLVESGGGLIQPGGSLRLSCAASGVIVSYNYMNWVRQAPGKGLEWVSVIYSGGSTFYADSVRGRFTISRDNSKNTLYLQMNSLRAEDTAVYYCARDLGPAGAFDIWGLGTMVTVSSGGSSGQVTLRESGPALVKPTQTLTLTCTFSGFSLSTRGVCVSWIRQPPGKALEWLAFIDWDDDKYYNTSLKTRLTISKDTSKNQVVLTMTNVHPVDTATYYCARISSHHGSSWCTTFDYWGQGALVTVSAASGGSGDKTHTCPPCPAPELLGGPSVFLFPPKPKDTLMISRTPEVTCVVVDVSHEDPEVKFNWYVDGVEVHNAKTKPREEQYNSYVVSVLTVLHQDWLNGKEYKCKVSNKALPAPIEKTISKAKGQPREPQVYTLPPSRDELTKNQVSLTCLVKGFYPSDIAVEWESNGQPENNYKTTPPVLDSDGSFFKKLTVDKSRWQQGNVFSCSVLHEALHSHYTQKSLSLSPG
B2: MX1043 (bispecific antibody)
chain: EIVLTQSPGTLSLSPGETATLSCRASQSFSSDLAWYQQKPGQAPRLLIYGASSRATGIPDRFSGSGSGTDFTLTISRLEPADFAVYYCQQYGSSPPVTFGGGTKVEIKGGSSGQTVVTQEPSFSVSPGGTVTLTCGLSSGSVSTAYFPSWYQQTPGQAPRTLIYGTNTRSSGVPDRFSGSILGNKAALTITGAQADDESDYYCVLYMGRGIVVFGGGTKLTVLGGGGSGGSGSGGGGSASGSGQVQLVESGGGVVQPGRSLRLSCAASGFTLSSYGMHWVRQAPGKGLEWVAVISYDGSNKYYVDSVKGRFTISRDNSKNTLYLQMNSLRAEDTAVYYCRWAYWELLPDYYYGMDVWGQGTTVTVSSGGSSGEVQLVESGGGLIQPGGSLRLSCAASGVIVSYNYMNWVRQAPGKGLEWVSVIYSGGSTFYADSVRGRFTISRDNSKNTLYLQMNSLRAEDTAVYYCARDLGPAGAFDIWGLGTMVTVSSASGGSGDKTHTCPPCPAPELLGGPSVFLFPPKPKDTLMISRTPEVTCVVVDVSHEDPEVKFNWYVDGVEVHNAKTKPREEQYNSYVVSVLTVLHQDWLNGKEYKCKVSNKALPAPIEKTISKAKGQPREPQVYTLPPSRDELTKNQVSLTCLVKGFYPSDIAVEWESNGQPENNYKTTPPVLDSDGSFFKKLTVDKSRWQQGNVFSCSVLHEALHSHYTQKSLSLSPG
B3: MX1069 (protein)
chain 1: QTVVTQEPSFSVSPGGTVTLTCGLSSGSVSTAYFPSWYQQTPGQAPRTLIYGTNTRSSGVPDRFSGSILGNKAALTITGAQADDESDYYCVLYMGRGIVVFGGGTKLTVLGGSSGEIVLTQSPGTLSLSPGETATLSCRASQSFSSDLAWYQQKPGQAPRLLIYGASSRATGIPDRFSGSGSGTDFTLTISRLEPADFAVYYCQQYGSSPPVTFGGGTKVEIKGGGGSGGSGSGGGGSASGSGEVQLVESGGGLIQPGGSLRLSCAASGVIVSYNYMNWVRQAPGKGLEWVSVIYSGGSTFYADSVRGRFTISRDNSKNTLYLQMNSLRAEDTAVYYCARDLGPAGAFDIWGLGTMVTVSSGGSSGQVQLVESGGGVVQPGRSLRLSCAASGFTLSSYGMHWVRQAPGKGLEWVAVISYDGSNKYYVDSVKGRFTISRDNSKNTLYLQMNSLRAEDTAVYYCRWAYWELLPDYYYGMDVWGQGTTVTVSSASGGSGDKTHTCPPCPAPELLGGPSVFLFPPKPKDTLMISRTPEVTCVVVDVSHEDPEVKFNWYVDGVEVHNAKTKPREEQYNSYVVSVLTVLHQDWLNGKEYKCKVSNKALPAPIEKTISKAKGQPREPQVYTLPPCRDELTKNQVSLWCLVKGFYPSDIAVEWESNGQPENNYKTTPPVLDSDGSFFKKLTVDKSRWQQGNVFSCSVLHEALHSHYTQKSLSLSPG
chain 2: EIVLTQSPGTLSLSPGETATLSCRASQSFSSDLAWYQQKPGQAPRLLIYGASSRATGIPDRFSGSGSGTDFTLTISRLEPADFAVYYCQQYGSSPPVTFGGGTKVEIKGGSSGDTVMTQSPLSLPVTPGEPASISCRSSQSLLNSNGYNYLDWYVQKPGQSPQLLIYLGSNRASGVPDRFSGSGSGTDFTLKISRVEAEDVGVYYCMQPLQTPLFTFGPGTKVEIKGGGGSGGSGSGGGGSASGSGQVTLRESGPALVKPTQTLTLTCTFSGFSLSTRGVCVSWIRQPPGKALEWLAFIDWDDDKYYNTSLKTRLTISKDTSKNQVVLTMTNVHPVDTATYYCARISSHHGSSWCTTFDYWGQGALVTVSAGGSSGEVQLVESGGGLIQPGGSLRLSCAASGVIVSYNYMNWVRQAPGKGLEWVSVIYSGGSTFYADSVRGRFTISRDNSKNTLYLQMNSLRAEDTAVYYCARDLGPAGAFDIWGLGTMVTVSSASGGSGDKTHTCPPCPAPELLGGPSVFLFPPKPKDTLMISRTPEVTCVVVDVSHEDPEVKFNWYVDGVEVHNAKTKPREEQYNSYVVSVLTVLHQDWLNGKEYKCKVSNKALPAPIEKTISKAKGQPREPQVCTLPPSRDELTKNQVSLSCAVKGFYPSDIAVEWESNGQPENNYKTTPPVLDSDGSFFLVSKLTVDKSRWQQGNVFSCSVLHEALHSHYTQKSLSLSPG
B4: MX1055 (protein)
chain 1: EIVMTQSPAILSVSPGERATLSCRASQSVAINLAWYQQKPGQAPRLLIYAASSRATGIPGRFSGSGSETNFTLTISSLQSGDFAVYYCQQYITWPPSYTFGQGTKLEIKGGSSGDTVMTQSPLSLPVTPGEPASISCRSSQSLLNSNGYNYLDWYVQKPGQSPQLLIYLGSNRASGVPDRFSGSGSGTDFTLKISRVEAEDVGVYYCMQPLQTPLFTFGPGTKVEIKGGGGSGGSGSGGGGSASGSGQVTLRESGPALVKPTQTLTLTCTFSGFSLSTRGVCVSWIRQPPGKALEWLAFIDWDDDKYYNTSLKTRLTISKDTSKNQVVLTMTNVHPVDTATYYCARISSHHGSSWCTTFDYWGQGALVTVSAGGSSGEVQLVESGGALIQPGGSLRLSCAASGIIVSANYMSWVRQAPGKGLEWVSVIYSGGSTFYADSVKGRFTISRDNSKNTLYLEMNSLRAEDTAVYYCARDAPILGVSDWGQGTLVTVSSASGGSGDKTHTCPPCPAPELLGGPSVFLFPPKPKDTLMISRTPEVTCVVVDVSHEDPEVKFNWYVDGVEVHNAKTKPREEQYNSYVVSVLTVLHQDWLNGKEYKCKVSNKALPAPIEKTISKAKGQPREPQVYTLPPCRDELTKNQVSLWCLVKGFYPSDIAVEWESNGQPENNYKTTPPVLDSDGSFFKKLTVDKSRWQQGNVFSCSVLHEALHSHYTQKSLSLSPG
chain 2: DTVMTQSPLSLPVTPGEPASISCRSSQSLLNSNGYNYLDWYVQKPGQSPQLLIYLGSNRASGVPDRFSGSGSGTDFTLKISRVEAEDVGVYYCMQPLQTPLFTFGPGTKVEIKGGSSGQTVVTQEPSFSVSPGGTVTLTCGLSSGSVSTAYFPSWYQQTPGQAPRTLIYGTNTRSSGVPDRFSGSILGNKAALTITGAQADDESDYYCVLYMGRGIVVFGGGTKLTVLGGGGSGGSGSGGGGSASGSGQVQLVESGGGVVQPGRSLRLSCAASGFTLSSYGMHWVRQAPGKGLEWVAVISYDGSNKYYVDSVKGRFTISRDNSKNTLYLQMNSLRAEDTAVYYCRWAYWELLPDYYYGMDVWGQGTTVTVSSGGSSGQVTLRESGPALVKPTQTLTLTCTFSGFSLSTRGVCVSWIRQPPGKALEWLAFIDWDDDKYYNTSLKTRLTISKDTSKNQVVLTMTNVHPVDTATYYCARISSHHGSSWCTTFDYWGQGALVTVSAASGGSGDKTHTCPPCPAPELLGGPSVFLFPPKPKDTLMISRTPEVTCVVVDVSHEDPEVKFNWYVDGVEVHNAKTKPREEQYNSYVVSVLTVLHQDWLNGKEYKCKVSNKALPAPIEKTISKAKGQPREPQVCTLPPSRDELTKNQVSLSCAVKGFYPSDIAVEWESNGQPENNYKTTPPVLDSDGSFFLVSKLTVDKSRWQQGNVFSCSVLHEALHSHYTQKSLSLSPG
B5: MX1089 (protein)
chain 1: QTVVTQEPSFSVSPGGTVTLTCGLSSGSVSTAYFPSWYQQTPGQAPRTLIYGTNTRSSGVPDRFSGSILGNKAALTITGAQADDESDYYCVLYMGRGIVVFGGGTKLTVLGGSSGEIVMTQSPAILSVSPGERATLSCRASQSVAINLAWYQQKPGQAPRLLIYAASSRATGIPGRFSGSGSETNFTLTISSLQSGDFAVYYCQQYITWPPSYTFGQGTKLEIKGGGGSGGSGSGGGGSASGSGEVQLVESGGALIQPGGSLRLSCAASGIIVSANYMSWVRQAPGKGLEWVSVIYSGGSTFYADSVKGRFTISRDNSKNTLYLEMNSLRAEDTAVYYCARDAPILGVSDWGQGTLVTVSSGGSSGQVQLVESGGGVVQPGRSLRLSCAASGFTLSSYGMHWVRQAPGKGLEWVAVISYDGSNKYYVDSVKGRFTISRDNSKNTLYLQMNSLRAEDTAVYYCRWAYWELLPDYYYGMDVWGQGTTVTVSSASGGSGDKTHTCPPCPAPELLGGPSVFLFPPKPKDTLMISRTPEVTCVVVDVSHEDPEVKFNWYVDGVEVHNAKTKPREEQYNSYVVSVLTVLHQDWLNGKEYKCKVSNKALPAPIEKTISKAKGQPREPQVYTLPPCRDELTKNQVSLWCLVKGFYPSDIAVEWESNGQPENNYKTTPPVLDSDGSFFKKLTVDKSRWQQGNVFSCSVLHEALHSHYTQKSLSLSPG
chain 2: DTVMTQSPLSLPVTPGEPASISCRSSQSLLNSNGYNYLDWYVQKPGQSPQLLIYLGSNRASGVPDRFSGSGSGTDFTLKISRVEAEDVGVYYCMQPLQTPLFTFGPGTKVEIKGGSSGEIVLTQSPGTLSLSPGERATLSCRASQSVSSSYLAWYQQKPGQAPRLLIYSASSRATGIPDRFSGSGSGTDFTLTISRLEPEDFAVYFCQQYVGLTGWTFGQGTKVEIKGGGGSGGSGSGGGGSASGSGQMQLVQSGPEVKKPGTSVKVSCKASGFTFTSSAVQWVRQRQRLEWIGWIVVGSGNTNYAQKFQERVTITRDMSTSTAYMELSSLRSEDTAVYYCAAPNCSNVVCYDGFDIWGQGTMVTVSSGGSSGQVTLRESGPALVKPTQTLTLTCTFSGFSLSTRGVCVSWIRQPPGKALEWLAFIDWDDDKYYNTSLKTRLTISKDTSKNQVVLTMTNVHPVDTATYYCARISSHHGSSWCTTFDYWGQGALVTVSAASGGSGDKTHTCPPCPAPELLGGPSVFLFPPKPKDTLMISRTPEVTCVVVDVSHEDPEVKFNWYVDGVEVHNAKTKPREEQYNSYVVSVLTVLHQDWLNGKEYKCKVSNKALPAPIEKTISKAKGQPREPQVCTLPPSRDELTKNQVSLSCAVKGFYPSDIAVEWESNGQPENNYKTTPPVLDSDGSFFLVSKLTVDKSRWQQGNVFSCSVLHEALHSHYTQKSLSLSPG
B6: E12 (antibody, V domains shown)
VH: EVQLVESGGGLIQPGGSLRLSCAASGVIVSYNYMNWVRQAPGKGLEWVSVIYSGGSTFYADSVRGRFTISRDNSKNTLYLQMNSLRAEDTAVYYCARDLGPAGAFDIWGLGTMVTVSS
VL: EIVLTQSPGTLSLSPGETATLSCRASQSFSSDLAWYQQKPGQAPRLLIYGASSRATGIPDRFSGSGSGTDFTLTISRLEPADFAVYYCQQYGSSPPVTFGGGTKVEIK

target: SARS-CoV-2 spike protein, Omicron sublineage BA.2.75.2 (SARS-CoV-2), P0DTC2; assay: cell-based or functional assay

Question: How did the IC50 (pseudovirus neutralization) turn out when B1 was run?
Answer: Its IC50 (pseudovirus neutralization) is 0.01 nM.

Question: What about the IC80 (pseudovirus neutralization) of the same binder?
Answer: The IC80 (pseudovirus neutralization) was 0.05 nM.

Question: How did the IC50 (pseudovirus neutralization) turn out when B2 was run?
Answer: The IC50 (pseudovirus neutralization) was 2.06 nM.

Question: What about the IC80 (pseudovirus neutralization) of the same binder?
Answer: Its IC80 (pseudovirus neutralization) is 4.01 nM.

Question: How did the IC50 (pseudovirus neutralization) turn out when B3 was run?
Answer: The IC50 (pseudovirus neutralization) was 1.81 nM.

Question: And the IC80 (pseudovirus neutralization)?
Answer: Its IC80 (pseudovirus neutralization) is 3.33 nM.

Question: For B4, which IC50 (pseudovirus neutralization) is on record?
Answer: Its IC50 (pseudovirus neutralization) is 2.32 nM.

Question: What about the IC80 (pseudovirus neutralization) of the same binder?
Answer: Its IC80 (pseudovirus neutralization) is 7.23 nM.

Question: How did the IC50 (pseudovirus neutralization) turn out when B5 was run?
Answer: The IC50 (pseudovirus neutralization) was 7.16 nM.

Question: What about the IC80 (pseudovirus neutralization) of the same binder?
Answer: The IC80 (pseudovirus neutralization) was 7.84 nM.

Question: What does the source list for B6?
Answer: IC50 (pseudovirus neutralization): 6.99 nM; IC80 (pseudovirus neutralization): 40.1 nM
